Target: Carbonic anhydrase (Pseudomonas aeruginosa (strain ATCC 15692 / DSM 22644 / CIP 104116 / JCM 14847 / LMG 12228 / 1C / PRS 101 / PAO1), UniProt Q9HVB9)
Test: Inhibition of Pseudomonas aeruginosa PAO1 type-2 beta-carbonic anhydrase psCA3 expressed in Escherichia coli Tuner BL21 (DE3) cells pre-incubated for 15 mins at pH 8.3 and 293K by CO2 hydration reaction based colorimetric stopped-flow method

Protein sequences, listed by entry. Tags and fused reporters are not part of them. Residues count along the entry.
UniProt Q9HVB9, 1-215: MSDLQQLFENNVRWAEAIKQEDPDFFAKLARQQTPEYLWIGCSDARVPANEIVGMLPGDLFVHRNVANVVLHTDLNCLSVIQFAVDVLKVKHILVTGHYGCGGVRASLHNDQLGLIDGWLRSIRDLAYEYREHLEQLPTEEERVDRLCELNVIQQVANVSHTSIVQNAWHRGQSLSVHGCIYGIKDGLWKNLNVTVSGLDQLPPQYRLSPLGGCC

`[O]=[V]([OH])([OH])[O][V](=[O])([OH])[OH]` was tested, and the Ki was 4.9 mM.

From BindingDB's records for 26068018 (University of Florida, 2015)
